Measured values from several laboratories, pooled; numbers as filed in NIAID ChemDB.

Common to all: enzyme or target tests; agent: Hepatitis C virus; protein: NS3/NS4A protease

Two numbers with a dash give a range or band.

SMILES | method | tested at | strain or isolate | measure | value
C=CC1CC1(NC(=O)[C@@H]1C[C@@H](OC(=O)N(c2ccccc2)c2ccccc2)CN1C(=O)[C@@H](NC(=O)OC(C)(C)C)C(C)(C)C)C(=O)NS(=O)(=O)C1CC1 |  |  | BMS/H77C/J416S | IC50 | <0.1 µM
C=C[C@H]1C[C@@]1(NC(=O)[C@@H]1C[C@@H](Oc2cc(-c3ccccc3)nc3cc(OC)ccc23)CN1C(=O)[C@@H](NC(=O)OC(C)(C)C)C(C)(C)C)C(=O)NS(=O)(=O)C1(CC)CC1 |  |  | BMS | IC50 | <0.05 µM
O=C(Nc1ccc(Oc2ccccc2)cc1)c1c(O)cc(O)c([N+](=O)[O-])c1O | HPLC | 100 µg/mL |  | inhibition | 100%
C=C1C[C@]1(NC(=O)[C@@H]1C[C@@H](Oc2cc(-c3ccccc3)nc3cc(OC)ccc23)CN1C(=O)[C@@H](NC(=O)OC(C)(C)C)C(C)(C)C)C(=O)NS(=O)(=O)c1cccc(C(F)(F)F)c1 |  |  | BMS | IC50 | <0.05 µM
O=C(Nc1cccc(Cl)c1Cl)c1c(O)cc(O)c([N+](=O)[O-])c1O | HPLC | 100 µg/mL |  | inhibition | 96.1%
C=C[C@H]1C[C@@]1(NC(=O)[C@@H]1C[C@@H](Oc2cc(-c3ccccc3)nc3cc(OC)ccc23)CN1C(=O)[C@@H](NC(=O)OC(C)(C)C)C(C)(C)C)C(=O)NS(=O)(=O)C1(CCOCc2ccccc2)CC1 |  |  | BMS | IC50 | <0.05 µM
C=C1C[C@]1(NC(=O)[C@@H]1C[C@@H](Oc2cc(-c3ccccc3)nc3cc(OC)ccc23)CN1C(=O)[C@@H](NC(=O)OC(C)(C)C)C(C)(C)C)C(=O)NS(=O)(=O)c1cc(F)ccc1C |  |  | BMS | IC50 | <0.05 µM
C=CCC1(S(=O)(=O)NC(=O)[C@]2(NC(=O)[C@@H]3C[C@@H](Oc4ccnc5cc(Cl)ccc45)CN3C(=O)[C@@H](NC(=O)OC3CCCC3)C(C)(C)C)C[C@@H]2C=C)CC1 |  |  | BMS | IC50 | 0.05–0.5 µM
O=C(Nc1ccc(Br)cc1)c1c(O)cc(O)c([N+](=O)[O-])c1O | HPLC | 100 µg/mL |  | inhibition | 94.1%
C=C[C@@H]1C[C@]1(NC(=O)[C@@H]1C[C@@H](Oc2cc(-c3ccccc3)nc3cc(OC)ccc23)CN1C(=O)[C@@H](NC(=O)OC(C)(C)C)C(C)(C)C)C(=O)NS(=O)(=O)C1CCC1 |  |  | BMS | IC50 | <0.05 µM
COc1ccc2c(O[C@@H]3C[C@@H](C(=O)NC4(C(=O)NS(=O)(=O)C5(Nc6ccccc6)CC5)CC4)N(C(=O)[C@@H](NC(=O)OC(C)(C)C)C(C)(C)C)C3)cc(-c3ccccc3)nc2c1 |  |  | BMS | IC50 | 0.5–5 µM
C=C[C@@H]1C[C@]1(NC(=O)[C@@H]1C[C@@H](Oc2cc(-c3ccccc3)nc3cc(OC)ccc23)CN1C(=O)[C@@H](NC(=O)OC(C)(C)C)C(C)(C)C)C(=O)NS(=O)(=O)c1ccccc1C(F)(F)F |  |  | BMS | IC50 | <0.05 µM
C=CC1C[C@@]1(NC(=O)[C@@H]1C[C@@H](Oc2cc(-c3ccccc3)nc3cc(OC)ccc23)CN1C(=O)[C@@H](NC(=O)Oc1ccc(OC)cc1)C(C)(C)C)C(=O)NS(=O)(=O)C1(Cc2ccccc2)CC1 |  |  | BMS | IC50 | 0.05–0.5 µM
C=CC1CC1(NC(=O)[C@@H]1C[C@@H](OC(=O)Nc2ccccc2C(=O)c2ccccc2)CN1C(=O)[C@@H](NC(=O)OC(C)(C)C)C(C)(C)C)C(=O)NS(=O)(=O)C1CC1 |  |  | BMS/H77C/J416S | IC50 | <0.1 µM
O=C(NCCOc1ccc(Oc2ccccc2)cc1)c1c(O)cc(O)c([N+](=O)[O-])c1O | HPLC | 100 µg/mL |  | inhibition | 71%
C=CC1CC1(NC(=O)[C@@H]1C[C@@H](OC(=O)Nc2cc(C(F)(F)F)ccc2N2CCCC2)CN1C(=O)[C@@H](NC(=O)OC(C)(C)C)C(C)(C)C)C(=O)NS(=O)(=O)C1CC1 |  |  | BMS/H77C/J416S | IC50 | <0.1 µM
CC[C@@H]1C[C@]1(NC(=O)[C@@H]1C[C@@H](Oc2cc(-c3ccccc3)nc3cc(OC)ccc23)CN1C(=O)[C@@H](NC(=O)CC1CC1)C(C)C)C(=O)NS(=O)(=O)C1CC1 |  |  | BMS | IC50 | <0.05 µM
C=CC1CC1(NC(=O)[C@@H]1C[C@@H](OC(=O)N[C@H]2C[C@@H]2c2ccccc2)CN1C(=O)[C@@H](NC(=O)OC(C)(C)C)C(C)(C)C)C(=O)NS(=O)(=O)C1CC1 |  |  | BMS/H77C/J416S | IC50 | <0.1 µM
C=C[C@@H]1C[C@]1(NC(=O)[C@@H]1C[C@@H](Oc2cc(-c3ccccc3)nc3cc(OC)ccc23)CN1C(=O)[C@@H](NC(=O)OC(C)(C)C)C(C)(C)C)C(=O)NS(=O)(=O)c1ccc(NC(C)=O)cc1 |  |  | BMS | IC50 | <0.05 µM
CCCCCCCNC(=O)c1c(O)cc(O)c([N+](=O)[O-])c1O | HPLC | 100 µg/mL |  | inhibition | 86.8%
C=CC1CC1(NC(=O)[C@@H]1C[C@@H](OC(=O)Nc2cc(C)ccc2-n2cccn2)CN1C(=O)[C@@H](NC(=O)OC(C)(C)C)C(C)(C)C)C(=O)NS(=O)(=O)C1CC1 |  |  | BMS/H77C/J416S | IC50 | <0.1 µM
C=CC1C[C@@]1(NC(=O)[C@@H]1C[C@@H](Oc2cc(-c3ccccc3)nc3cc(OC)ccc23)CN1C(=O)[C@@H](NC(=O)OCC(C)(C)C)C(C)(C)C)C(=O)NS(=O)(=O)C1(Cc2ccccc2)CC1 |  |  | BMS | IC50 | <0.05 µM
C=C[C@@H]1C[C@]1(NC(=O)[C@@H]1C[C@@H](Oc2cc(-c3ccccc3)nc3cc(OC)ccc23)CN1C(=O)[C@@H](NC(=O)OC(C)(C)C)C(C)(C)C)C(=O)NS(=O)(=O)CCC |  |  | BMS | IC50 | <0.05 µM
C=CC1CC1(NC(=O)[C@@H]1C[C@@H](OC(=O)Nc2ccccc2-c2ncn[nH]2)CN1C(=O)[C@@H](NC(=O)OC(C)(C)C)C(C)(C)C)C(=O)NS(=O)(=O)C1CC1 |  |  | BMS/H77C/J416S | IC50 | <0.1 µM
C=CC1C[C@@]1(NC(=O)[C@@H]1C[C@@H](Oc2cc(-c3nc(C(C)C)cs3)nc3cc(OC)ccc23)CN1C(=O)[C@@H](NC(=O)OC(C)(C)C)C(C)(C)C)C(=O)NS(=O)(=O)C1(CCC)CC1 |  |  | BMS | IC50 | <0.05 µM

Again, the opening 2 rows:

{"SMILES": "C=CC1CC1(NC(=O)[C@@H]1C[C@@H](OC(=O)N(c2ccccc2)c2ccccc2)CN1C(=O)[C@@H](NC(=O)OC(C)(C)C)C(C)(C)C)C(=O)NS(=O)(=O)C1CC1", "strain or isolate": "BMS/H77C/J416S", "measure": "IC50", "value": "<0.1 µM"}
{"SMILES": "C=C[C@H]1C[C@@]1(NC(=O)[C@@H]1C[C@@H](Oc2cc(-c3ccccc3)nc3cc(OC)ccc23)CN1C(=O)[C@@H](NC(=O)OC(C)(C)C)C(C)(C)C)C(=O)NS(=O)(=O)C1(CC)CC1", "strain or isolate": "BMS", "measure": "IC50", "value": "<0.05 µM"}

An empty or dashed field is not shown. Inhibition is in % at the dose shown (toxicity tests: loss of growth or viability). ICn: concentration for n% inhibition. Neighbouring rows are from separate reports.